From patent US5840283A, “Composition and method for treating diseased nails” (Sorenson Pharmaceutical, Inc., priority 1997, dated 1998) come the findings set out here.

The nature of the series: absorbance spectrum studies (amide I band) on hydrated human toe nails. The conditions noted are these: toe nails hydrated in heavy water.

As for `[2H]O[2H]` [heavy water], the “conformational alterations by hydration alone” value is given as “hydration alone does not result in conformational alterations”.
